# Data as given in patent publication US6566344B1, “β-L-2′-deoxy-nucleosides for the treatment of hepatitis B” (priority 1998, dated 2003).
# Test system: hepatitis B virus
# Test: Anti-hepatitis B virus activity in transfected Hep G-2 (2.2.15) cells
# Format: cell-based
# Settings: cytotoxicity IC50 / EC50
row,Structure (SMILES),Selectivity Index IC50/EC50
1,"Nc1ncnc2c1ncn2[C@@H]1C[C@@H](O)[C@H](CO)O1 [β-L-dA, 2′-Deoxy-β-L-adenosine]",>2000
2,"Nc1ccn([C@@H]2C[C@@H](O)[C@H](CO)O2)c(=O)n1 [β-L-dC, 2′-Deoxy-β-L-cytidine]",>4000
3,"O=c1[nH]cnc2c1ncn2[C@@H]1C[C@@H](O)[C@H](CO)O1 [β-L-dI, 2′-deoxy-β-L-inosine]",>200
4,"Cc1cn([C@@H]2C[C@@H](O)[C@H](CO)O2)c(=O)[nH]c1=O [β-L-dT, 2′-Deoxy-β-L-Thymidine]",>4000
5,"O=c1ccn([C@@H]2C[C@@H](O)[C@H](CO)O2)c(=O)[nH]1 [β-L-dU, β-L-2′-deoxyuridine]",>40
